Measured values taken from PMC8878748, “Broad-Spectrum Antiviral Activity of the Amphibian Antimicrobial Peptide Temporin L and Its Analogs” (International Journal of Molecular Sciences, 2022).

Experiments:
Details in all cases: therapeutic index CC50/IC50
[1] = system: HSV-2
[2] = system: SARS-CoV-2
[3] = system: HSV-1
[4] = system: HPIV-3
[5] = system: MeV
[6] = system: influenza virus (subtype H1N1)

| Structure (SMILES) | TI HSV-2 [1] | TI SARS-CoV-2 [2] | TI HSV-1 [3] | TI HPIV-3 [4] | TI MeV [5] | TI Influenza [6] |
| --- | --- | --- | --- | --- | --- | --- |
| CC[C@H](C)[C@H](NC(=O)[C@H](CCCNC(=N)N)NC(=O)C1(NC(=O)[C@@H](CC(C)C)NC(=O)[C@H](Cc2ccccc2)NC(=O)[C@H](CCCCN)NC(=O)[C@H](CO)NC(=O)[C@H](Cc2ccccc2)NC(=O)[C@H](Cc2c[nH]c3ccccc23)NC(=O)[C@@H]2CCCN2C(=O)[C@@H](NC(=O)[C@@H](N)Cc2ccccc2)C(C)C)Cc2ccccc2C1)C(=O)N[C@@H](CC(C)C)C(N)=O [TL12, H-Phe-Val-Pro-Trp-Phe-Ser-Lys-Phe-DLeu-Aic-Arg-Ile-Leu-NH2] (H-FVPWFSKF[dL][Aic]RIL-NH2) | 15.33 | 12.74 | 12.18 | 0.24 | 0.27 | 11.66 |
| CC[C@H](C)[C@H](NC(=O)[C@H](CCCNC(=N)N)NC(=O)[C@@H](CCCCN)NC(=O)[C@@H](CC(C)C)NC(=O)[C@H](Cc1ccccc1)NC(=O)[C@H](CCCCN)NC(=O)[C@H](CO)NC(=O)[C@H](Cc1ccccc1)NC(=O)[C@H](Cc1c[nH]c2ccccc12)NC(=O)[C@@H]1CCCN1C(=O)[C@@H](NC(=O)[C@@H](N)Cc1ccccc1)C(C)C)C(=O)N[C@@H](CC(C)C)C(N)=O [TL9, H-Phe-Val-Pro-Trp-Phe-Ser-Lys-Phe-DLeu-DLys-Arg-Ile-Leu-NH2] (H-FVPWFSKF[dL][dK]RIL-NH2) | 16.40 | 9.92 | 13.01 | – | 1.02 | 13.35 |
| CCCC[C@H](NC(=O)[C@@H](CC(C)C)NC(=O)[C@H](Cc1ccccc1)NC(=O)[C@H](CCCCN)NC(=O)[C@H](CO)NC(=O)[C@H](Cc1ccccc1)NC(=O)[C@H](Cc1c[nH]c2ccccc12)NC(=O)[C@@H]1CCCN1C(=O)[C@@H](NC(=O)[C@@H](N)Cc1ccccc1)C(C)C)C(=O)N[C@@H](CCCNC(=N)N)C(=O)N[C@H](C(=O)N[C@@H](CC(C)C)C(N)=O)[C@@H](C)CC [TL6, H-Phe-Val-Pro-Trp-Phe-Ser-Lys-Phe-DLeu-Nle-Arg-Ile-Leu-NH2] (H-FVPWFSKF[dL][Nle]RIL-NH2) | 70.13 | 121.74 and 121.70 | 24.26 and 24.25 | 1.99 | 1.87 | 24.26 |
| CC[C@H](C)[C@H](NC(=O)[C@H](CCCNC(=N)N)NC(=O)[C@@H](Cc1c[nH]c2ccccc12)NC(=O)[C@@H](CC(C)C)NC(=O)[C@H](Cc1ccccc1)NC(=O)[C@H](CCCCN)NC(=O)[C@H](CO)NC(=O)[C@H](Cc1ccccc1)NC(=O)[C@H](Cc1c[nH]c2ccccc12)NC(=O)[C@@H]1CCCN1C(=O)[C@@H](NC(=O)[C@@H](N)Cc1ccccc1)C(C)C)C(=O)N[C@@H](CC(C)C)C(N)=O [TL11, H-Phe-Val-Pro-Trp-Phe-Ser-Lys-Phe-DLeu-DTrp-Arg-Ile-Leu-NH2] (H-FVPWFSKF[dL][dW]RIL-NH2) | 41.59 | 5.93 | 12.97 | – | 0.56 | 7.91 |

Values joined by “and” are separate entries in the source; they are usually repeats but may differ in a detail not shown here. Equal values may be shown once. Where a SMILES comes first, the peptide text is derived from it. [ ]: non-standard residue; d: D form. Aic = NC1(C(=O)O)Cc2ccccc2C1; Nle = CCCC[C@H](N)C(=O)O
